The assay deals with HLA-DP4 (human), P20036. Kind of assay: competition peptide binding on T2/DP4 cells vs Oxy271-287. As to conditions: chains peptide; modification not given.

As for FNNFTVSFWLRVPKVSASHLE [tetanus toxin947-967 (TT947-967)], the IC50 (commonly the concentration that inhibits the measured activity by half) turned out to be 4.4 µM.

The values above are taken from patent US20260042827A1, “ANTI-WT1 ANTIGEN-BINDING PROTEINS AND USES THEREOF” (UNIVERSITY HEALTH NETWORK, priority 2022, published 2026).
